Laboratory results reported in article PMC8661032, “Broad-Spectrum Antibacterial Peptide Kills Extracellular and Intracellular Bacteria Without Affecting Epithelialization” (Frontiers in Microbiology, 2021).
Like-named read-outs stand apart in the source and are kept apart here. Residues, ends and D or L forms follow the SMILES beside them.

Tests used:
[1] = tested on: S. aureus ATCC 29213 and SO-SAU19-1
[2] = tested on: E. coli K-12 MG1655; assay: Resistance development assay (serial passage), E. coli; conditions: serial passage at sub-MIC in CAMHB, 32 days

CC[C@H](C)[C@H](NC(=O)CNC(=O)[C@H](CCCCN)NC(=O)[C@@H](NC(=O)[C@H](CC(C)C)NC(=O)[C@H](Cc1c[nH]c2ccccc12)NC(=O)[C@H](CCCNC(=N)N)NC(=O)[C@H](CC(=O)O)NC(=O)[C@H](CCSC)NC(C)=O)C(C)C)C(=O)N[C@@H](CC(C)C)C(=O)N[C@@H](CCC(N)=O)C(=O)N[C@@H](Cc1c[nH]c2ccccc12)C(=O)N[C@@H](CCCNC(=N)N)C(=O)N[C@@H](CCCCN)C(=O)N[C@H](C(=O)N[C@@H](CCCNC(=N)N)C(=O)N[C@@H](CCCNC(=N)N)C(=O)N[C@@H](CCCNC(=N)N)C(=O)N[C@@H](CCCNC(=N)N)C(=O)N[C@@H](CCCNC(=N)N)C(=O)N[C@@H](CCCNC(=N)N)C(=O)N[C@@H](CCCNC(=N)N)C(=O)N[C@@H](CCCNC(=N)N)C(=O)N[C@@H](CCCNC(=N)N)C(=O)N[C@@H](CCCNC(=N)N)C(=O)N[C@@H](CCCNC(=N)N)C(N)=O)[C@@H](C)CC [betatide] (Ac-MDRWLVKGILQWRKIRRRRRRRRRRR-NH2)
increase in MIC relative to day 1 ([1]; S. aureus ATCC 29213, serial passage, first experiment (parallel 1)): 8 ×
increase in MIC relative to day 1 ([1]; S. aureus SO-SAU19-1 (MRSA), 20 passages): did not show any signs of resistance development
increase in MIC relative to day 1 [2]: 2 ×
